Results of unrelated studies side by side (data: NIAID ChemDB).

Shared fields: tests in culture; agent: Aspergillus flavus; read-out: zone

An empty or dashed field is not shown. Conditions beyond the fields shown may differ between rows. Zones are inhibition diameters on agar.

{"SMILES": "C[C@H]1[C@H](O)[C@@H](C)/C=C/C=C/C=C/C=C/C=C/C=C/C=C/[C@H](O[C@@H]2O[C@H](C)[C@@H](O)[C@H](N)[C@@H]2O)C[C@@H]2O[C@](O)(C[C@@H](O)C[C@@H](O)CC[C@H](O)[C@@H](O)C[C@@H](O)CC(=O)O[C@H]1C)C[C@H](O)[C@H]2C(=O)O", "tested at": "10 µg/mL", "read by": "agar diffusion / agar", "value": "29 mm"}
{"SMILES": "CCCCc1nc(Cl)c(-c2cc(-c3cccs3)nc3c2C(=O)c2ccccc2-3)n1Cc1ccccc1", "tested at": "10 µg/disc", "strain": "MTCC 8188", "read by": "agar diffusion", "value": "6 mm"}
{"SMILES": "CCOC(=O)C1=C(N)Sc2[nH]c(=S)[nH]c(=S)c2C1c1ccc(Cl)cc1", "tested at": "10000 µg/mL", "read by": "agar diffusion / agar", "value": "14 mm"}
{"SMILES": "C[C@@H]1[C@H](O)[C@@H](C)/C=C/C=C/CC/C=C/C=C/C=C/C=C/C(O[C@H]2O[C@H](C)[C@@H](O)[C@H](N)[C@@H]2O)CC2O[C@](O)(CC(O)C(O)CCC(O)CC(O)CC(O)CC(=O)O[C@H]1C)CC(O)C2C(=O)O", "tested at": "10 µg/disc", "strain": "MTCC 277", "read by": "agar diffusion", "value": "22 mm"}
{"SMILES": "CCCCc1nc(Cl)c(-c2cc(-c3ccc([N+](=O)[O-])cc3)nc3c2C(=O)c2ccccc2-3)n1Cc1ccccc1", "tested at": "10 µg/disc", "strain": "MTCC 8188", "read by": "agar diffusion", "value": "6 mm"}
{"SMILES": "O=c1ccc2cc3c(=O)[nH]c(=S)[nH]c3oc-2c1", "tested at": "10000 µg/mL", "read by": "agar diffusion / agar", "value": "0 mm"}
{"SMILES": "Cc1ccc2nc(Cl)c(CNc3ccc(Br)cc3)cc2c1", "tested at": "200 µg/mL", "strain": "MTCC 277", "read by": "agar diffusion", "value": "11.06 mm"}
{"SMILES": "Cc1cc(O)c(C(=O)/C=C/c2ccc(O)cc2)c(=O)o1", "tested at": "250 µg/disc", "read by": "agar diffusion", "value": "14 mm"}
{"SMILES": "CCCCc1nc(Cl)c(-c2cc(-c3ccc4oc5ccccc5c4c3)nc3c2C(=O)c2ccccc2-3)n1Cc1ccccc1", "tested at": "10 µg/disc", "strain": "MTCC 8188", "read by": "agar diffusion", "value": "7 mm"}
{"SMILES": "[Al]#[P]", "tested at": "1 mg/mL", "read by": "agar diffusion", "value": "16.01 mm"}
{"SMILES": "Cc1ccc2nc(Cl)c(CN3CCOCC3)cc2c1", "tested at": "200 µg/mL", "strain": "MTCC 277", "read by": "agar diffusion", "value": "5.52 mm"}
{"SMILES": "CCCCc1nc(Cl)c(-c2cc(-c3ccc(C)cc3)nc3c2C(=O)c2ccccc2-3)n1Cc1ccccc1", "tested at": "10 µg/disc", "strain": "MTCC 8188", "read by": "agar diffusion", "value": "7 mm"}
{"SMILES": "Nc1ccc(S(N)(=O)=O)cc1", "tested at": "25 µg/mL", "read by": "agar", "value": "22 mm"}
{"SMILES": "Nc1ccc(S(=O)(=O)NNCc2ccc(O)c3ncccc23)cc1", "tested at": "25 µg/mL", "read by": "agar diffusion / agar", "value": "32 mm"}
{"SMILES": "COc1cc(C2c3c(nc[nH]c3=O)Oc3[nH]c(=S)[nH]c(=O)c32)cc(OC)c1OC", "tested at": "10000 µg/mL", "read by": "agar diffusion / agar", "value": "0 mm"}
{"SMILES": "Cc1ccc2nc(Cl)c(CNCc3ccccc3)cc2c1", "tested at": "200 µg/mL", "strain": "MTCC 277", "read by": "agar diffusion", "value": "13.53 mm"}
{"SMILES": "CCCCc1nc(Cl)c(-c2cc(-c3cn(S(=O)(=O)c4ccc(C)cc4)c4ccccc34)nc3c2C(=O)c2ccccc2-3)n1Cc1ccccc1", "tested at": "10 µg/disc", "strain": "MTCC 8188", "read by": "agar diffusion", "value": "11 mm"}
{"SMILES": "Cc1ccc(NCc2cc3cc(C)ccc3nc2Cl)cc1", "tested at": "200 µg/mL", "strain": "MTCC 277", "read by": "agar diffusion", "value": "8.33 mm"}
{"SMILES": "CCCCc1nc(Cl)c(-c2cc(-c3ccc(Br)s3)nc3c2C(=O)c2ccccc2-3)n1Cc1ccccc1", "tested at": "10 µg/disc", "strain": "MTCC 8188", "read by": "agar diffusion", "value": "7 mm"}

A second listing of 2 rows from above:

| SMILES | tested at | strain | read by | value |
|---|---|---|---|---|
| Cc1cc(O)c(C(=O)/C=C/c2ccc(O)cc2)c(=O)o1 | 250 µg/disc | - | agar diffusion | 14 mm |
| CCCCc1nc(Cl)c(-c2cc(-c3ccc4oc5ccccc5c4c3)nc3c2C(=O)c2ccccc2-3)n1Cc1ccccc1 | 10 µg/disc | MTCC 8188 | agar diffusion | 7 mm |